Pooled drug test results. Numbers come from NIAID ChemDB, via PubChem.

All rows: whole-cell or culture tests; agent: Aspergillus niger; endpoint: zone

Zones are inhibition diameters on agar. An empty or dashed field is not shown. Rows are shuffled and stem from different studies.

smiles,strain or isolate,method,tested at,result
Cc1ccc(N2NOC(=O)C2S(=O)(=O)Nc2nc(-c3c(F)cc(Cl)cc3Cl)cs2)cc1,MTCC 282,agar diffusion,250 µg/mL,17 mm
C[C@H]1[C@H](O)[C@@H](C)/C=C/C=C/C=C/C=C/C=C/C=C/C=C/[C@H](O[C@@H]2O[C@H](C)[C@@H](O)[C@H](N)[C@@H]2O)C[C@@H]2O[C@](O)(C[C@@H](O)C[C@@H](O)CC[C@H](O)[C@@H](O)C[C@@H](O)CC(=O)O[C@H]1C)C[C@H](O)[C@H]2C(=O)O,-,agar diffusion / agar,10 µg/mL,29 mm
O=C1NC(=O)C(=Cc2cn(-c3ccccc3)nc2-c2cc3ccc4ccccc4c3oc2=O)C(=O)N1,-,agar diffusion / agar,150 µg,0 mm
CC(C)(CN=C/C=C/c1ccccc1[N+](=O)[O-])CN=C/C=C/c1ccccc1[N+](=O)[O-],-,agar diffusion,5 mg/disc,0.9 mm
O=C(/C=C/c1ccc2c(c1)OCO2)c1ccc2occc2c1O,-,agar diffusion,50 µg/disc,0 mm
C(/C=C/c1ccccc1)=NCCNCCN=C/C=C/c1ccccc1.[Br][Hg][Br],-,agar diffusion,20000 µg/mL,25 mm
COc1ccc(-c2oc3ccc(Cl)cc3c(=O)c2O)cc1,-,agar diffusion,100 µg/mL,19 mm
Cc1ccc(N2NOC(=O)C2S(=O)(=O)Nc2nc(-c3c(Cl)cccc3Cl)cs2)cc1,MTCC 282,agar diffusion,250 µg/mL,21 mm
O=C1NC(=O)C(=Cc2cn(-c3ccccc3)nc2-c2cc3ccccc3oc2=O)C(=O)N1,-,agar diffusion / agar,150 µg,0 mm
CC(=O)Oc1c(-c2ccccc2)oc2ccccc2c1=O,-,agar diffusion,100 µg/mL,14 mm
Cc1ccc(N2NOC(=O)C2S(=O)(=O)Nc2ccc(-n3c(-c4ccccc4)nc4ccccc4c3=O)cc2)cc1,MTCC 282,agar diffusion,250 µg/mL,20 mm
O=C1NC(=S)NC(=O)C1=Cc1cn(-c2ccccc2)nc1-c1cc2cc(Cl)ccc2oc1=O,-,agar diffusion / agar,150 µg,0 mm
CN(C/C=C/C#CC(C)(C)C)Cc1cccc2ccccc12,MTCC 281,agar diffusion,200 µg/mL,21.58 mm
C[C@@H]1[C@H](O)[C@@H](C)/C=C/C=C/CC/C=C/C=C/C=C/C=C/C(O[C@H]2O[C@H](C)[C@@H](O)[C@H](N)[C@@H]2O)CC2O[C@](O)(CC(O)C(O)CCC(O)CC(O)CC(O)CC(=O)O[C@H]1C)CC(O)C2C(=O)O,MTCC 282,agar diffusion,250 µg/mL,29 mm
CC(=O)Oc1c(-c2ccc(F)cc2)oc2ccccc2c1=O,-,agar diffusion,100 µg/mL,19 mm
Cc1ccc(N2NOC(=O)C2S(=O)(=O)Nc2nc(-c3ccc([N+](=O)[O-])cc3)cs2)cc1,MTCC 282,agar diffusion,250 µg/mL,21 mm
O=C1NC(=O)C(=Cc2cn(-c3ccccc3)nc2-c2cc3cc(Br)cc(Br)c3oc2=O)C(=O)N1,-,agar diffusion / agar,150 µg,10 mm
COc1ccccc1-n1c(C)nc2ccc(Br)cc2c1=O,-,agar diffusion / agar,50 µg/mL,16.58 mm
Cc1cc(C)nc(Nc2ccccc2)n1,-,-,10 µg/mL,2.6 mm
c1ccc2ccccc2c1,-,agar diffusion / agar,50000 µg/mL,0.67 mm
Cc1ccc(N2NOC(=O)C2S(=O)(=O)Nc2ccc(-n3c(-c4cccc([N+](=O)[O-])c4)nc4ccccc4c3=O)cc2)cc1,MTCC 282,agar diffusion,250 µg/mL,23 mm
Oc1cccc2cccnc12,-,agar,25 µg/mL,21 mm
C[C@@H]1[C@H](O)[C@@H](C)/C=C/C=C/CC/C=C/C=C/C=C/C=C/C(O[C@H]2O[C@H](C)[C@@H](O)[C@H](N)[C@@H]2O)CC2O[C@](O)(CC(O)C(O)CCC(O)CC(O)CC(O)CC(=O)O[C@H]1C)CC(O)C2C(=O)O,MTCC 2723,agar diffusion,10 µg/disc,23 mm
O=C1NC(=S)NC(=O)C1=Cc1cn(-c2ccccc2)nc1-c1cc2ccc3ccccc3c2oc1=O,-,agar diffusion / agar,150 µg,0 mm
Cc1nc2ccc(Br)cc2c(=O)n1-c1ccccc1[N+](=O)[O-],-,agar diffusion / agar,50 µg/mL,18.68 mm
CC(=O)N(c1ccccc1)c1nc(C)cc(C)n1,-,-,10 µg/mL,2.1 mm
Cc1ccc(-c2oc3ccccc3c(=O)c2O)cc1,-,agar diffusion,100 µg/mL,12 mm
C(/C=C/c1ccccc1)=NCCNCCN=C/C=C/c1ccccc1.[I][Hg][I],-,agar diffusion,30000 µg/mL,42 mm
Cc1ccc2nc(Cl)c(CNCc3ccccc3)cc2c1,MTCC 281,agar diffusion,200 µg/mL,13.06 mm
Cc1nc(Nc2ccccc2)nc(C)c1C#N,-,-,50 µg/mL,1.7 mm
Cc1ccc([O][Hg][Cl])c(/C=N/NC(=O)Nc2nc(-c3ccccc3)cs2)c1,-,agar diffusion,100 µg/mL,20 mm
Cc1nc2ccc(Br)cc2c(=O)n1-c1ccccc1,-,agar diffusion / agar,50 µg/mL,12.52 mm
Cc1cccc(NCc2cc3cc(C)ccc3nc2Cl)c1,MTCC 281,agar diffusion,200 µg/mL,7.5 mm
CC(=O)Oc1c(-c2ccc(N(C)C)cc2)oc2ccc(Cl)cc2c1=O,-,agar diffusion,100 µg/mL,14 mm
O=C(/C=C/c1ccccc1)c1c(O)cc2occc2c1O,-,agar diffusion,50 µg/disc,0 mm
CCC(C)n1ncn(-c2ccc(N3CCN(c4ccc(OC[C@H]5CO[C@](Cn6cncn6)(c6ccc(Cl)cc6Cl)O5)cc4)CC3)cc2)c1=O,ATCC 6275,agar diffusion,150 µg/mL,13 mm
O=c1c(O)c(-c2ccc(Cl)cc2)oc2ccc(Cl)cc12,-,agar diffusion,100 µg/mL,17 mm
Cc1ccc2nc(Cl)c(CNc3ccc(F)cc3)cc2c1,MTCC 281,agar diffusion,200 µg/mL,12 mm
Cc1ccc(N2NOC(=O)C2S(=O)(=O)Nc2nc3cc(F)ccc3s2)cc1,MTCC 282,agar diffusion,250 µg/mL,19 mm
O=c1c(O)c(-c2ccc(Cl)cc2)oc2ccccc12,-,agar diffusion,100 µg/mL,15 mm
Cc1nc2ccc(Br)cc2c(=O)n1-c1ccc(Cl)c(Cl)c1,-,agar diffusion / agar,50 µg/mL,24.12 mm
CC(=O)Oc1c(-c2ccccc2)oc2ccc(Cl)cc2c1=O,-,agar diffusion,100 µg/mL,19 mm
Oc1cccc2cccnc12,-,agar diffusion / agar,25 µg/mL,21 mm
COc1ccc(-c2oc3ccc(Cl)cc3c(=O)c2OC(C)=O)cc1,-,agar diffusion,100 µg/mL,22 mm
COc1cc2occc2c(O)c1C(=O)/C=C/c1ccccc1,-,agar diffusion,50 µg/disc,9.5 mm

Again, the opening 3 rows:

smiles | strain or isolate | method | tested at | result
Cc1ccc(N2NOC(=O)C2S(=O)(=O)Nc2nc(-c3c(F)cc(Cl)cc3Cl)cs2)cc1 | MTCC 282 | agar diffusion | 250 µg/mL | 17 mm
C[C@H]1[C@H](O)[C@@H](C)/C=C/C=C/C=C/C=C/C=C/C=C/C=C/[C@H](O[C@@H]2O[C@H](C)[C@@H](O)[C@H](N)[C@@H]2O)C[C@@H]2O[C@](O)(C[C@@H](O)C[C@@H](O)CC[C@H](O)[C@@H](O)C[C@@H](O)CC(=O)O[C@H]1C)C[C@H](O)[C@H]2C(=O)O | - | agar diffusion / agar | 10 µg/mL | 29 mm
O=C1NC(=O)C(=Cc2cn(-c3ccccc3)nc2-c2cc3ccc4ccccc4c3oc2=O)C(=O)N1 | - | agar diffusion / agar | 150 µg | 0 mm